Pooled drug test results. Numbers come from NIAID ChemDB, via PubChem.

All rows: tests in culture; agent: HIV-1; cells: JM; endpoint: EC50

Neighbouring rows are from separate reports. ECn: concentration that inhibits the pathogen or its effect by n%.

{"structure": "O[C@H]1[C@H](O)[C@H](O)CN2CC[C@H](O)[C@H]12", "strain or isolate": "GB8", "method": "syncytia", "result": "~1000 µM"}
{"structure": "CCOP(=O)(N[C@@H](CC(C)C)C(=O)OC)OC[C@H]1O[C@@H](n2cc(C)c(=O)[nH]c2=O)C[C@@H]1N=[N+]=[N-]", "strain or isolate": "GBB", "method": "p24", "result": "20 µg/mL"}
{"structure": "Cc1cn([C@H]2C[C@H](N=[N+]=[N-])[C@@H](COP(=O)(O)OCc3ccc(C(=O)OC(C)(C)C)cc3)O2)c(=O)[nH]c1=O", "strain or isolate": "GB8", "method": "syncytia", "result": "<1.88 µM"}
{"structure": "O=C(O[C@H]1CN2CC[C@H](O)[C@@H]2[C@@H](O)[C@@H]1O)c1ccc(Br)cc1", "strain or isolate": "GB8", "method": "syncytia", "result": "0.75 µg/mL"}
{"structure": "CCOC(=O)c1ccc(COP(=O)(OCc2ccc(C(=O)OCC)cc2)OC[C@H]2O[C@@H](n3cc(C)c(=O)[nH]c3=O)C[C@@H]2N=[N+]=[N-])cc1", "strain or isolate": "GB8", "method": "syncytia", "result": "0.007 µM"}
{"structure": "OC[C@@H]1[C@@H](O)[C@@H](O)[C@H]2[C@@H](O)CCN21", "strain or isolate": "GB8", "method": "syncytia", "result": "16 µM"}
{"structure": "Cc1cn([C@H]2C[C@H](N=[N+]=[N-])[C@@H](COP(=O)(Oc3ccc(I)cc3)Oc3ccc(I)cc3)O2)c(=O)[nH]c1=O", "strain or isolate": "GB8)/1(IIIB", "method": "ELISA", "result": "10 µM"}
{"structure": "Cc1ccc(NC(=O)Nc2ccc(-c3ccc(NC(=O)Nc4ccc(-c5ccc(NC(=O)Nc6ccc(-c7ccc(NC(=O)Nc8ccc(-c9ccc(NC(=O)Nc%10ccc(C)cc%10)cc9S(=O)(=O)O)c(S(=O)(=O)O)c8)cc7S(=O)(=O)O)c(S(=O)(=O)O)c6)cc5S(=O)(=O)O)c(S(=O)(=O)O)c4)cc3S(=O)(=O)O)c(S(=O)(=O)O)c2)cc1", "strain or isolate": "GB8", "method": "p24", "result": "1.9 µM"}
{"structure": "O=C(O[C@H]1CN2CC[C@H](O)[C@@H]2[C@@H](O)[C@@H]1O)c1ccco1", "strain or isolate": "GB8", "method": "syncytia", "result": "1 µg/mL"}
{"structure": "Nc1ccn([C@@H]2O[C@H](CO)C[C@@H]2F)c(=O)n1", "strain or isolate": "GBB", "method": "p24", "result": "0.05 µg/mL"}
{"structure": "Cc1cn([C@H]2C[C@H](N=[N+]=[N-])[C@@H](COP(=O)(Oc3ccc([N+](=O)[O-])cc3)Oc3ccc([N+](=O)[O-])cc3)O2)c(=O)[nH]c1=O", "strain or isolate": "GB8)/1(IIIB", "method": "ELISA", "result": "10 µM"}
{"structure": "OC[C@H]1[C@@H](O)[C@H](O)[C@H]2[C@@H](O)CCN21", "strain or isolate": "GB8", "method": "syncytia", "result": "70 µM"}
{"structure": "Cc1cccc(C(=O)O[C@H]2CN3CC[C@H](O)[C@@H]3[C@@H](O)[C@@H]2O)c1", "strain or isolate": "GB8", "method": "syncytia", "result": "7 µg/mL"}
{"structure": "Cc1cn([C@H]2C[C@H](N=[N+]=[N-])[C@@H](CO)O2)c(=O)[nH]c1=O", "strain or isolate": "GB8", "method": "p24", "result": ">100 µM"}
{"structure": "Cc1cccc(C(=O)O[C@H]2CN3CC[C@H](O)[C@@H]3[C@@H](O)[C@@H]2O)c1", "strain or isolate": "GB8", "method": "syncytia", "result": "7 µg/mL"}
{"structure": "O[C@H]1[C@H](O)[C@@H](O)CN2CC[C@H](O)[C@H]12", "strain or isolate": "GB8", "method": "syncytia", "result": "<250 µM"}
{"structure": "Nc1ccn([C@H]2CC[C@@H](CO)O2)c(=O)n1", "strain or isolate": "GB8", "method": "syncytia", "result": "0.1 µM"}
{"structure": "O=C(O[C@H]1CN2CC[C@H](O)[C@@H]2[C@@H](O)[C@@H]1O)c1ccccc1", "strain or isolate": "GB8", "method": "syncytia", "result": "1 µg/mL"}
{"structure": "OC[C@@H]1[C@@H](O)[C@H](O)[C@H]2[C@@H](O)CCN21", "strain or isolate": "GB8", "method": "syncytia", "result": "720 µM"}
{"structure": "OC[C@@H]1[C@@H](O)[C@H](O)[C@@H]2[C@@H](O)CCN21", "strain or isolate": "GB8", "method": "syncytia", "result": ">1000 µM"}
{"structure": "O=c1ccn([C@H]2CC[C@@H](CO)O2)c(=O)[nH]1", "strain or isolate": "GBB", "method": "p24", "result": "100 µg/mL"}
{"structure": "Cc1ccc(NC(=O)Nc2ccc(-c3ccc(NC(=O)Nc4ccc(-c5ccc(NC(=O)Nc6ccc(-c7ccc(NC(=O)Nc8ccc(C)cc8)cc7S(=O)(=O)O)c(S(=O)(=O)O)c6)cc5S(=O)(=O)O)c(S(=O)(=O)O)c4)cc3S(=O)(=O)O)c(S(=O)(=O)O)c2)cc1", "strain or isolate": "GB8", "method": "p24", "result": "7.8 µM"}
{"structure": "Cc1cn([C@H]2C[C@H](N=[N+]=[N-])[C@@H](COP(=O)(Oc3ccc(C(F)(F)F)cc3)Oc3ccc(C(F)(F)F)cc3)O2)c(=O)[nH]c1=O", "strain or isolate": "GB8)/1(IIIB", "method": "ELISA", "result": "45 µM"}
{"structure": "Nc1ccn([C@H]2CC[C@@H](CO)O2)c(=O)n1", "strain or isolate": "IIIB", "method": "syncytia", "result": "0.05 µM"}
{"structure": "CCOC(=O)c1ccc(COP(=O)(O)OC[C@H]2O[C@@H](n3cc(C)c(=O)[nH]c3=O)C[C@@H]2N=[N+]=[N-])cc1", "strain or isolate": "GB8", "method": "syncytia", "result": "<0.019 µM"}
{"structure": "Nc1ccn([C@H]2CC[C@@H](CO)O2)c(=O)n1", "strain or isolate": "GB8", "method": "p24", "result": "0.002 µM"}
{"structure": "CC(C)(C)OC(=O)[C@@H]1CCCN1C[C@H](O)[C@H](Cc1ccccc1)NC(=O)[C@H](CC(N)=O)NC(=O)OCc1ccccc1", "strain or isolate": "GBB", "method": "p24", "result": "10 µg/mL"}
{"structure": "Cc1cn([C@H]2C[C@H](N=[N+]=[N-])[C@@H](CO)O2)c(=O)[nH]c1=O", "strain or isolate": "GB8)/1(IIIB", "method": "ELISA", "result": "100 µM"}
{"structure": "O[C@H]1[C@H](O)[C@@H](O)CN2CC[C@H](O)[C@H]12", "strain or isolate": "GBB", "method": "p24", "result": "1 µg/mL"}
{"structure": "Cc1ccc(C(=O)O[C@H]2CN3CC[C@H](O)[C@@H]3[C@@H](O)[C@@H]2O)cc1", "strain or isolate": "GB8", "method": "syncytia", "result": "5.8 µg/mL"}
{"structure": "C[C@H](CCC(=O)NCCS(=O)(=O)O)[C@H]1CC[C@H]2[C@@H]3CC[C@@H]4C[C@H](O)CC[C@]4(C)C3CC[C@]12C", "strain or isolate": "GBB", "method": "p24", "result": "2 µg/mL"}
{"structure": "Cc1cn([C@H]2C[C@H](N=[N+]=[N-])[C@@H](COP(=O)(O)OCc3ccc(C(=O)OC(C)C)cc3)O2)c(=O)[nH]c1=O", "strain or isolate": "GB8", "method": "syncytia", "result": "<0.0019 µM"}
{"structure": "OC[C@H]1N[C@H](CO)[C@@H](O)[C@@H]1O", "strain or isolate": "GBB", "method": "p24", "result": "200 µg/mL"}
{"structure": "Cc1cn([C@H]2C[C@H](N=[N+]=[N-])[C@@H](COP(=O)(O)O)O2)c(=O)[nH]c1=O", "strain or isolate": "GB8", "method": "syncytia", "result": "<2.6 µM"}

Repeating the first 2 entries:

structure,strain or isolate,method,result
O[C@H]1[C@H](O)[C@H](O)CN2CC[C@H](O)[C@H]12,GB8,syncytia,~1000 µM
CCOP(=O)(N[C@@H](CC(C)C)C(=O)OC)OC[C@H]1O[C@@H](n2cc(C)c(=O)[nH]c2=O)C[C@@H]1N=[N+]=[N-],GBB,p24,20 µg/mL